Source: paper PMC2596486 (PLoS ONE, 2008)

Target: rHA subtype H9 (A/Hong Kong/1073/99) (Influenza A virus A/Hong Kong/1073/99 …, UniProt Q9ICY5, strain)
Experiment: SPR
Settings: both partners purified

B1: CR6323 Fab (Fab, V domains shown)
VH: EVQLVESGAEVKKPGSSVKVSCKASGGTFSSYGISWVRQAPGQGLEWMGDIIGMFGSTNYAQNFQGRLTITADESTSTAYMELSSLRSEDTAVYYCARSSGYYPAYLPHWGQGTLVTVSS
VL: not shown
- Kd: 2.1 nM
- koff: 0.0027 s⁻¹
- kon: 1.3e+06 M⁻¹ s⁻¹
